2 compounds from publication PMC12799219, “In vitro and in vivo studies on the activity and selectivity of butoconazole in experimental infection by Trypanosoma cruzi” (Memórias do Instituto Oswaldo Cruz, 2026) can be followed below.

This data set concerns T. cruzi intracellular forms (Tulahuen strain). In words: In vitro activity on intracellular forms of T. cruzi in L929 cells (β-galactosidase/CPRG). The format is cell-based, Trypanosoma cruzi. As to conditions: L929 LC50 / intracellular EC50, 96 h of incubation. The procedure: In vitro activity on intracellular forms of T. cruzi - L929 cells previously seeded in 96-well plates (4 x 10^3 cells/well) were infected (ratio of 10 parasites:1 host cell) for 2 h with trypomastigote forms (Tulahuen strain transfected with the β-galactosidase gene, DTU VI).

Regarding `Clc1ccc(CCC(Cn2ccnc2)Sc2c(Cl)cccc2Cl)cc1` (centres unmarked) [BTZ, butoconazole], the “SI (ratio LC50/EC50)” value is given as 341.
As for `O=C(Cn1ccnc1[N+](=O)[O-])NCc1ccccc1` [BZ, benznidazole], the “SI (ratio LC50/EC50)” value is above 231.
